# According to PubChem BioAssay AID1117362 (Southern Research Institute, 2015):
# Only a part is listed here, and it is no random draw. Activity calls are given as the source filed them.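 The calls were made as follows: active = inhibition above 30% at one or more concentrations, seen consistently on every test date; inconclusive = results that disagree between repeat test dates; inactive = the rest.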
# Assay: biotin-GST/anti-GST TR-FRET signal inhibitors, dose response, artefact control for Vif-APOBEC3G degradation inhibitor project, biochemical (AID 1117362);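 also: biotinylated GST protein used in place of GST-Vif 1-94 and biotin-A3G peptide; detects fluorescence quenchers or blockers of GST binding to anti-GST antibody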
# Conditions: TR-FRET counter screen; at 100 µM (top of the series)
row,Structure (SMILES),inhibition
1,O=[N+]([O-])c1cccc(NC2=NCC(CBr)S2)c1 (stereo unspecified),inactive: 2.48%
